Results deposited as PubChem BioAssay AID624099 (ICCB-Longwood, 2012).
The whole screen tested about 21,000 reagents; below is a random part of them. 497 of all reagents (2.4%) count as active. 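Higher z means weaker E2 silencing; only reporter increases were scored, and knock-downs that hurt cell survival may mask genuine repressor factors.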 Unmarked entries are inactive. Reagents against one gene are numbered here.

Assay: 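Knock-downs relieving repression by E2 of an HPV18 LCR luciferase reporter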 (primary screen)
Cell system: human C33A cervical carcinoma cells (HPV-negative) stably expressing BPV1 E2 and an HPV18 LCR luciferase reporter
Knock-down reagent: siRNA pool against human genes, 40 nM
Timing: 72 h
Measurement: 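HPV18 LCR reporter light per well, converted to plate-wise z-scores that exclude control wells, and averaged over triplicate plates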
Scale: mean z-score and z-score: higher = stronger reporter signal, weaker E2 silencing
Hit rule: 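Hit if mean z-score reaches 2 and two or more of three replicate z-scores also reach 2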

gene symbol | reagent no. | mean z-score | z-score, replicate A | z-score, replicate B | z-score, replicate C
SNX1 | 1 | 0.47 | 0.65 | 0.21 | 0.54
ETFB | 1 | 0.57 | 0.66 | 0.46 | 0.6
NAIP | 1 | -0.71 | -0.57 | -0.64 | -0.91
F13A1 | 1 | 1.6 | 1.23 | 1.79 | 1.78
TFAP4 | 1 | 0.19 | 0.14 | 0.32 | 0.11
RUNX2 | 1 | -0.05 | 0.1 | -0.18 | -0.09
SLC25A40 | 1 | 1.14 | 0.95 | 1.43 | 1.03
DHX29 | 1 | -1.08 | -1.17 | -1.06 | -1
INKA1 | 1 | 0.9 | 0.73 | 0.88 | 1.09
CCR3 | 1 | -0.87 | -1.09 | -0.76 | -0.77
LOC389628 (retired record) | 1 | 1.51 | 1.73 | 1.04 | 1.77
KDM2A | 1 | -0.65 | -0.41 | -0.6 | -0.93
CCL26 | 1 | 1.58 | 1.72 | 1.6 | 1.4
LINC02249 | 1 | 1.16 | 1.37 | 1.1 | 1.03
LOC388915 (retired record) | 1 | -0.46 | -0.49 | -0.63 | -0.26
MYEOV | 1 | 0.03 | 0.3 | -0.08 | -0.12
TMPRSS13 | 1 | -0.67 | -0.75 | -0.78 | -0.47
SOWAHB | 1 | -0.19 | 0.05 | -0.49 | -0.13
WDR26 | 1 | -2.08 | -2.11 | -2.05 | -2.07
LINC02877 | 1 | 0 | 0.04 | -0.23 | 0.19
MTM1 | 1 | -0.88 | -0.9 | -0.94 | -0.79
PNPT1 | 1 | -1.27 | -1.22 | -1.21 | -1.39
PODXL2 | 1 | 0.22 | -0.28 | 0.63 | 0.32
ROMO1 | 1 | 0.57 | 0.36 | 0.2 | 1.14
TMEM70 | 1 | 0.68 | 0.84 | 0.89 | 0.31
CACNA2D4 | 1 | -0.8 | -0.99 | -0.84 | -0.58
EPS15 | 1 | 0.09 | 0.4 | -0.07 | -0.07
TCERG1L | 1 | 0.44 | 0.04 | 0.45 | 0.84
LOC391352 (retired record) | 1 | 0.52 | 1.34 | 0.49 | -0.25
LOC401464 (retired record) | 1 | 0.39 | 0.25 | 0.76 | 0.16
OR4K1 | 1 | -0.98 | -1.23 | -0.58 | -1.14
CYB5B | 1 | -0.1 | 0.33 | -0.08 | -0.56
CST11 | 1 | -0.63 | -0.17 | -0.86 | -0.86
FAM120B | 1 | -0.4 | -0.49 | -0.39 | -0.31
OR4F16 | 1 | 0.48 | 0.58 | 0.49 | 0.37
OR4F16 | 2 | -1.75 | -1.56 | -1.83 | -1.87
SRARP | 1 | 0.03 | -0.5 | 0.38 | 0.21
CFAP95 | 1 | -0.2 | 0.12 | -0.35 | -0.36
CD34 | 1 | 1.65 | 1.69 | 1.51 | 1.74
AHDC1 | 1 | 0.3 | 0.24 | 0.34 | 0.31
BOD1 | 1 | -2.05 | -2.37 | -1.85 | -1.93
C1RL-AS1 | 1 | 0.39 | 0.23 | 0.55 | 0.39
RFX7 | 1 | -0.09 | 0.21 | -0.3 | -0.19
PELI2 | 1 | -0.46 | -0.8 | 0 | -0.59
OR6C68 | 1 | 0.3 | 0.26 | 0.59 | 0.06
RFC2 | 1 | 0.21 | -0.16 | 0.16 | 0.63
MRI1 | 1 | -0.53 | -0.82 | -0.4 | -0.36
LOC286080 (retired record) | 1 | -1.47 | -0.73 | -1.88 | -1.8
LOC390508 (retired record) | 1 | -0.07 | -0.26 | -0.23 | 0.28
MED7 | 1 | -2.26 | -2.28 | -2.34 | -2.16
RPL13 | 1 | -1.43 | -1.38 | -1.42 | -1.5
FOXP1 | 1 | -1.95 | -1.88 | -2.06 | -1.91
C5AR1 | 1 | 1.42 | 1.78 | 1.23 | 1.26
LINC00304 | 1 | -2.25 | -1.97 | -2.31 | -2.47
THSD4 | 1 | -0.45 | -0.65 | -0.58 | -0.12
GBP1P1 | 1 | -0.8 | -1.08 | -0.5 | -0.83
GBP1P1 | 2 | -0.14 | -0.03 | -0.38 | -0.01

An excerpt from above, reduced to “z-score, replicate B”.
MRI1	-0.4
LOC286080 (retired record)	-1.88
LOC390508 (retired record)	-0.23
MED7	-2.34
RPL13	-1.42
